Reference: patent US20250115620A1, “BRIDGED TRICYCLIC CARBAMOYLPYRIDONE COMPOUNDS AND USES THEREOF” (Gilead Sciences, Inc., priority 2022, published 2025)

Tested on: pLAI reporter virus
Format: cell-based, HIV
Details: EC50 (50% HS)/EC50 (CCM)

Row | Structure (SMILES) | RLUC 50% HS Shift
1 | [2H]C([2H])([2H])OC1=NO[C@@]2(CC[C@H](C)N3C[C@H]2n2cc(C(=O)NCc4c(F)cc(F)cc4F)c(=O)c(O)c2C3=O)C1([2H])[2H] [Example 39, (3′S,5S,7′R)-12′-hydroxy-3-(methoxy-d3)-3′-methyl-1′,11′-dioxo-N-(2,4,6-trifluorobenzyl)-1′,4′,5′,11′-tetrahydro-3′H,4H,7′H-spiro[isoxazole-5,6′-[2,7]methanopyrido[1,2-a][1,4]diazonine]-4,4-d2-10′-carboxamide] | 118×
2 | COC1=NO[C@@]2(CC[C@H](C)N3C[C@H]2n2cc(C(=O)NCc4ccc(F)cc4F)c(=O)c(O)c2C3=O)C1 [Example 40, (3′S,5S,7′R)—N-(2,4-difluorobenzyl)-12′-hydroxy-3-methoxy-3′-methyl-1′,11′-dioxo-1′,4′,5′,11′-tetrahydro-3′H,4H,7′H-spiro[isoxazole-5,6′-[2,7]methanopyrido[1,2-a][1,4]diazonine]-10′-carboxamide] | 113× and 112×
3 | COCCOC1=NO[C@@]2(CC[C@H](C)N3C[C@H]2n2cc(C(=O)NCc4ccc(F)cc4F)c(=O)c(O)c2C3=O)C1 [Example 41, (3′S,5S,7′R)—N-(2,4-difluorobenzyl)-12′-hydroxy-3-(2-methoxyethoxy)-3′-methyl-1′,11′-dioxo-1′,4′,5′,11′-tetrahydro-3′H,4H,7′H-spiro[isoxazole-5,6′-[2,7]methanopyrido[1,2-a][1,4]diazonine]-10′-carboxamide] | 1×
4 | CSC1=NO[C@@]2(CC[C@H](C)N3C[C@H]2n2cc(C(=O)NCc4c(F)cc(F)cc4F)c(=O)c(O)c2C3=O)C1 [Example 43, (3′S,5S,7′R)-12′-hydroxy-3′-methyl-3-(methylthio)-1′,11′-dioxo-N-(2,4,6-trifluorobenzyl)-1′,4′,5′,11′-tetrahydro-3′H,4H,7′H-spiro[isoxazole-5,6′-[2,7]methanopyrido[1,2-a][1,4]diazonine]-10′-carboxamide] | 186×
5 | C[C@H]1CC[C@]2(CC(Br)=NO2)[C@H]2CN1C(=O)c1c(O)c(=O)c(C(=O)NCc3ccc(F)cc3F)cn12 [Example 44, (3′S,5S,7′R)-3-bromo-N-(2,4-difluorobenzyl)-12′-hydroxy-3′-methyl-1′,11′-dioxo-1′,4′,5′,11′-tetrahydro-3′H,4H,7′H-spiro[isoxazole-5,6′-[2,7]methanopyrido[1,2-a][1,4]diazonine]-10′-carboxamide] | 1600×
6 | C[C@H]1CC[C@]2(CC(OC3COC3)=NO2)[C@H]2CN1C(=O)c1c(O)c(=O)c(C(=O)NCc3ccc(F)cc3F)cn12 [Example 45, (3′S,5S,7′R)—N-(2,4-difluorobenzyl)-12′-hydroxy-3′-methyl-3-(oxetan-3-yloxy)-1′,11′-dioxo-1′,4′,5′,11′-tetrahydro-3′H,4H,7′H-spiro[isoxazole-5,6′-[2,7]methanopyrido[1,2-a][1,4]diazonine]-10′-carboxamide] | 5×
7 | C[C@H]1CC[C@]2(CC(OCC(F)(F)F)=NO2)[C@H]2CN1C(=O)c1c(O)c(=O)c(C(=O)NCc3ccc(F)cc3F)cn12 [Example 46, (3′S,5S,7′R)—N-(2,4-difluorobenzyl)-12′-hydroxy-3′-methyl-1′,11′-dioxo-3-(2,2,2-trifluoroethoxy)-1′,4′,5′,11′-tetrahydro-3′H,4H,7′H-spiro[isoxazole-5,6′-[2,7]methanopyrido[1,2-a][1,4]diazonine]-10′-carboxamide] | 23×
8 | C[C@H]1CC[C@]2(CC(OCC(F)F)=NO2)[C@H]2CN1C(=O)c1c(O)c(=O)c(C(=O)NCc3ccc(F)cc3F)cn12 [Example 47, (3′S,5S,7′R)—N-(2,4-difluorobenzyl)-3-(2,2-difluoroethoxy)-12′-hydroxy-3′-methyl-1′,11′-dioxo-1′,4′,5′,11′-tetrahydro-3′H,4H,7′H-spiro[isoxazole-5,6′-[2,7]methanopyrido[1,2-a][1,4]diazonine]-10′-carboxamide] | 13×
9 | COC1=NO[C@@]2(C=C[C@H](C)N3C[C@H]2n2cc(C(=O)NCc4ccc(F)c(Cl)c4F)c(=O)c(O)c2C3=O)C1 [Example 48, (3′S,5R,7′R)—N-(3-chloro-2,4-difluorobenzyl)-12′-hydroxy-3-methoxy-3′-methyl-1′,11′-dioxo-1′,11′-dihydro-3′H,4H,7′H-spiro[isoxazole-5,6′-[2,7]methanopyrido[1,2-a][1,4]diazonine]-10′-carboxamide] | 41×
10 | COC1=NO[C@@]2(CC[C@H](C)N3C[C@H]2n2cc(C(=O)NCc4ccc(F)c(Cl)c4F)c(=O)c(O)c2C3=O)C1 [Example 49, (3′S,5S,7′R)—N-(3-chloro-2,4-difluorobenzyl)-12′-hydroxy-3-methoxy-3′-methyl-1′,11′-dioxo-1′,4′,5′,11′-tetrahydro-3′H,4H,7′H-spiro[isoxazole-5,6′-[2,7]methanopyrido[1,2-a][1,4]diazonine]-10′-carboxamide] | 415×
11 | C[C@H]1CC[C@@]2(ON=C3OCCC[C@@H]32)[C@H]2CN1C(=O)c1c(O)c(=O)c(C(=O)NCc3c(F)cc(F)cc3F)cn12 [Example 50, (3S,3a R,3′S,7′R)-12′-hydroxy-3′-methyl-1′,11′-dioxo-N-(2,4,6-trifluorobenzyl)-1′,3a,4,4′,5,5′,6,11′-octahydro-3′H,7′H-spiro[pyrano[2,3-c]isoxazole-3,6′-[2,7]methanopyrido[1,2-a][1,4]diazonine]-10′-carboxamide] | 21×
12 | CNC1=NO[C@@]2(CC[C@H](C)N3C[C@H]2n2cc(C(=O)NCc4c(F)cc(F)cc4F)c(=O)c(O)c2C3=O)C1 [Example 51, (3′S,5S,7′R)-12′-hydroxy-3′-methyl-3-(methylamino)-1′,11′-dioxo-N-(2,4,6-trifluorobenzyl)-1′,4′,5′,11′-tetrahydro-3′H,4H,7′H-spiro[isoxazole-5,6′-[2,7]methanopyrido[1,2-a][1,4]diazonine]-10′-carboxamide] | 17×
13 | C[C@H]1CC[C@]2(CC(N(C)C)=NO2)[C@H]2CN1C(=O)c1c(O)c(=O)c(C(=O)NCc3c(F)cc(F)cc3F)cn12 [Example 52, (3′S,5S,7′R)-3-(dimethylamino)-12′-hydroxy-3′-methyl-1′,11′-dioxo-N-(2,4,6-trifluorobenzyl)-1′,4′,5′,11′-tetrahydro-3′H,4H,7′H-spiro[isoxazole-5,6′-[2,7]methanopyrido[1,2-a][1,4]diazonine]-10′-carboxamide] | 21×
14 | C[C@H]1CC[C@]2(CC(Cl)=NO2)[C@H]2CN1C(=O)c1c(O)c(=O)c(C(=O)NCc3c(F)cc(F)cc3F)cn12 [Example 53, (3′S,5S,7′R)-3-chloro-12′-hydroxy-3′-methyl-1′,11′-dioxo-N-(2,4,6-trifluorobenzyl)-1′,4′,5′,11′-tetrahydro-3′H,4H,7′H-spiro[isoxazole-5,6′-[2,7]methanopyrido[1,2-a][1,4]diazonine]-10′-carboxamide] | 554×
15 | CC1=NO[C@@]2(CC[C@H](CF)N3C[C@H]2n2cc(C(=O)NCc4c(F)cc(F)cc4F)c(=O)c(O)c2C3=O)C1 [Example 54, (3′R,5S,7′R)-3′-(fluoromethyl)-12′-hydroxy-3-methyl-1′,11′-dioxo-N-(2,4,6-trifluorobenzyl)-1′,4′,5′,11′-tetrahydro-3′H,4H,7′H-spiro[isoxazole-5,6′-[2,7]methanopyrido[1,2-a][1,4]diazonine]-10′-carboxamide] | 179×
16 | C[C@H]1CC[C@@]2(CCO2)[C@H]2CN1C(=O)c1c(O)c(=O)c(C(=O)NCc3c(F)cc(F)cc3F)cn12 [Example 55, (2R,3′S,7′R)-12′-hydroxy-3′-methyl-1′,11′-dioxo-N-(2,4,6-trifluorobenzyl)-1′,4′,5′,11′-tetrahydro-3′H,7′H-spiro[oxetane-2,6′-[2,7]methanopyrido[1,2-a][1,4]diazonine]-10′-carboxamide] | 46×
17 | CC1=NCC2(CC[C@H](C)N3C[C@H]2n2cc(C(=O)NCc4ccc(F)cc4F)c(=O)c(O)c2C3=O)O1 (stereo partly drawn) [Example 56, (3′S,7′R)—N-(2,4-difluorobenzyl)-12′-hydroxy-2,3′-dimethyl-1′,11′-dioxo-1′,4′,5′,11′-tetrahydro-3′H,4H,7′H-spiro[oxazole-5,6′-[2,7]methanopyrido[1,2-a][1,4]diazonine]-10′-carboxamide] | 1×
18 | C[C@H]1CC[C@@]2(CNC(=O)C2)[C@H]2CN1C(=O)c1c(O)c(=O)c(C(=O)NCc3c(F)cc(F)cc3F)cn12 [Example 57, (3R,3′S, 7′S)-12′-hydroxy-3′-methyl-1′,5,11′-trioxo-N-(2,4,6-trifluorobenzyl)-1′,4′,5′,11′-tetrahydro-3′H, 7′H-spiro[pyrrolidine-3,6′-[2,7]methanopyrido[ ],2-a][1,4]diazonine-10′-carboxamide] | <1×
19 | C[C@H]1CC[C@@]2(CN(C)C(=O)O2)[C@H]2CN1C(=O)c1c(O)c(=O)c(C(=O)NCc3c(F)cc(F)cc3F)cn12 [Example 60, (3′S,5R,7′R)-12′-hydroxy-3,3′-dimethyl-1′,2,11′-trioxo-N-(2,4,6-trifluorobenzyl)-1′,4′,5′,11′-tetrahydro-3′H,7′H-spiro[oxazolidine-5,6′-[2,7]methanopyrido[1,2-a][1,4]diazonine]-10′-carboxamide] | 1×
20 | C[C@H]1CC[C@]2(CC(=O)N(C)C2)[C@H]2CN1C(=O)c1c(O)c(=O)c(C(=O)NCc3c(F)cc(F)cc3F)cn12 [Example 61, (3R,3′S,7′S)-12′-hydroxy-1,3′-dimethyl-1′,5,11′-trioxo-N-(2,4,6-trifluorobenzyl)-1′,4′,5′,11′-tetrahydro-3′H,7′H-spiro[pyrrolidine-3,6′-[2,7]methanopyrido[1,2-a][1,4]diazonine]-10′-carboxamide] | 2×
21 | C[C@H]1CC[C@@]2(CC(=O)N(C)C2)[C@H]2CN1C(=O)c1c(O)c(=O)c(C(=O)NCc3c(F)cc(F)cc3F)cn12 [Example 62, (3S,3′S,7′S)-12′-hydroxy-1,3′-dimethyl-1′,5,11′-trioxo-N-(2,4,6-trifluorobenzyl)-1′,4′,5′,11′-tetrahydro-3′H,7′H-spiro[pyrrolidine-3,6′-[2,7]methanopyrido[1,2-a][1,4]diazonine]-10′-carboxamide] | 2×

Values joined by “and” are separate entries in the source; they are usually repeats but may differ in a detail not shown here. Equal entries are not always repeated.
